Each structure is given as a SMILES string. Where a name gives a salt, the structure may show the parent alone.

For this test, the system named is P. falciparum 3D7. Conditions: for Effect of timed addition across parasite stages: 024, 025 15 µM; for Effect of timed addition across parasite stages / Effect of 30 min treatment of rings before inhibitor-free medium: chloroquine 150 ng/ml, artemisinin 100 ng/ml.
Where [1] appears, read: 15 µM, timed addition, parasitemia at 72 h.

In the case of `C[C@@H]1CC[C@H]2[C@@H](C)C(=O)O[C@@H]3O[C@@]4(C)CC[C@@H]1[C@]32OO4` [artemisinin, reference compound], the “Effect of timed addition across parasite stages” value is recorded as “sensitive” and the “Effect of 30 min treatment of rings before inhibitor-free medium” value is “killed parasites”.
The like results for `CCN(CC)CCCC(C)Nc1ccnc2cc(Cl)ccc12` (stereo not drawn) [chloroquine, reference compound] were, in that order, “sensitive” and “killed parasites”.
With `CC(C)C[C@H](NC(=O)[C@@H](NC(=O)[C@H](CCCCN)NS(=O)(=O)Cc1ccccc1)C(C)C)[C@@H](O)CC(=O)NCCc1ccccc1` [compound 024, PhCH2SO2-Lys(NH2)-Val-Sta-NH(CH2)2Ph .TFA], the “Effect of timed addition across parasite stages” value was “did not have any effect on parasite growth”. Besides, the “Growth after wash-out at any parasite stage, in words” value (15 µM) is “did not affect growth”.
`CC[C@H](C)[C@H](NC(=O)[C@@H](NC(=O)[C@H](CCCNC(=N)N)NS(=O)(=O)Cc1ccccc1)C(C)C)[C@@H](O)CC(=O)NCCc1ccccc1` [compound 025, PhCH2SO2Arg-Val-AHMHpA-NH(CH2)2Ph . TFA]: the “Effect of timed addition across parasite stages” value was “did not have any effect on parasite growth”. Besides, the “Growth after wash-out at any parasite stage, in words” value (15 µM) is on record as “did not affect growth”.
Regarding `CC(C)C[C@H](NC(=O)[C@@H](NC(=O)[C@H](CCCNC(=N)N)NS(=O)(=O)Cc1ccccc1)C(C)C)[C@@H](O)CC(=O)NCCc1ccccc1` [compound 916, PhCH2SO2-Arg(NH2)-Val-Sta-NH(CH2)2Ph .TFA], the “Treatment duration that adversely affected growth” value (15 µM from rings, wash-out, parasitemia at 72 h) was greater than 23 h. The “Growth after treatment of rings for 1–20 h then inhibitor-free medium” value (15 µM, parasitemia at 72 h) was “completely recovered”. Under setting [1], the “Effect of addition to rings or early trophozoites” value was “lethal” and the “Effect of addition to schizonts” value was “resistant”.

Source of the values: publication PMC4077696 (PLoS Biology, 2014).
